Data source: PubChem BioAssay AID504761 (Drosophila RNAi Screening Center, 2011)
Aim: 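Fly genes whose silencing reduces dengue virus type 2 infection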 (primary screen). Cells: D.Mel-2 cells from Drosophila. Knock-down reagent: long dsRNA against Drosophila genes. Conditions: infection with dengue virus type 2; dose and infection time not stated. Detection: 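Per well on two replicate plates, imaging gave the percent of cells positive for viral envelope protein, ranked by infection, and a nuclear count of cells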. Reading the numbers: infection score: higher = more virus-infected cells. Rule for the call: 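Very low infection ranking in both replicate wells (chance probability at most 0.065), then a retest showing infection dropped 1.5-fold or more at p below 0.05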. Meaning of the calls: active = confirmed: knock-down lowers infection; inactive = not picked or not confirmed.
The screen tested about 22,000 reagents; this is a random part of those that have a named target and a result. In the full data, 116 (0.52%) were called active. 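Calls depend on retest data that are not deposited; infection was ranked per plate without normalising between plates; the unit of the infection score is not given.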 Unmarked entries are inactive. Reagents against one gene are numbered here. Further read-outs or replicates are left out here. No sequences are given here. Not stated in the record: the amount of reagent, the time to read-out.

Osi23 (Osiris 23) | infection score, replicate 1 = 11
tou (toutatis) #1 | infection score, replicate 1 = 4.17
tou (toutatis) #2 | infection score, replicate 1 = 6.36
Sras (severas) | infection score, replicate 1 = 0.39
CG14314 | infection score, replicate 1 = 2.55
CG32107 | infection score, replicate 1 = 3.04
CG31391 | infection score, replicate 1 = 13.1
Nipped-B #1 | infection score, replicate 1 = 4.94
Nipped-B #2 | infection score, replicate 1 = 4.67
Karybeta3 (Karyopherin beta 3) | infection score, replicate 1 = 19.6
PAN2 (Poly(A)-binding protein-dependent poly(A) ribonuclease 2) | infection score, replicate 1 = 15.2
Vps13D (Vacuolar protein sorting 13D) #1 | infection score, replicate 1 = 1.79
Vps13D (Vacuolar protein sorting 13D) #2 | infection score, replicate 1 = 0.33
CG3430 | infection score, replicate 1 = 19.2
mrva (minerva) #1 | infection score, replicate 1 = 5.84
mrva (minerva) #2 | infection score, replicate 1 = 11.6
mrva (minerva) #3 | infection score, replicate 1 = 6.72
Mat89Ba (Maternal transcript 89Ba) #1 | infection score, replicate 1 = 11.3
Mat89Ba (Maternal transcript 89Ba) #2 | infection score, replicate 1 = 9.64
Rnf146 (Ring finger protein 146) | infection score, replicate 1 = 3.72
tant (tantalus) | infection score, replicate 1 = 0.68

In a second layout: entries from further up.
predicted target	reagent	infection score, replicate 1
CG14314	1	2.55
CG32107	1	3.04
